What was measured:
[1] = tested on: Pseudomonas aeruginosa C0214; experiment: Bacterial growth / checkerboard assay with kanamycin A; conditions: for growth curve reading: panel C
APH(2”)-IVa = APH(2”)-IVa (Enterococcus casseliflavus, UniProt O68183); experiment: Pyruvate Kinase-Lactate Dehydrogenase-coupled enzyme assay

Sequences of proteins named here, by UniProt entry; tags and fusion partners are left off. Residues count along the entry.
UniProt O68183, 1-301: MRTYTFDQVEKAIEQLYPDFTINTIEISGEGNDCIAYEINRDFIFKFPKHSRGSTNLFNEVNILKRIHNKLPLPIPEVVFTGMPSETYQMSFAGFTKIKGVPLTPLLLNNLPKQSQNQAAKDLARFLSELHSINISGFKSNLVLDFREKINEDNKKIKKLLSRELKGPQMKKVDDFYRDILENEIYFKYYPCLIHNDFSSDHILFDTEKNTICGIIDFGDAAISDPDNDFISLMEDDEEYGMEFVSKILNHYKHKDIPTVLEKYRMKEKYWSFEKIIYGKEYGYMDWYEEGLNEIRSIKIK

Cc1cc(-c2c(Cl)cnc3[nH]ccc23)[nH]n1
growth curve reading ([1]; Kanamycin A 16 µg·mL-1, [10] 125 µM, 9 h): 0.1951
growth curve reading ([1]; Kanamycin A 16 µg·mL-1, [10] 125 µM, 10 h): 0.2374
growth curve reading ([1]; Kanamycin A 16 µg·mL-1, [10] 125 µM, 11 h): 0.2715
growth curve reading ([1]; Kanamycin A 16 µg·mL-1, [10] 125 µM, 12 h): 0.2932
growth curve reading ([1]; Kanamycin A 16 µg·mL-1, [10] 125 µM, 13 h): 0.2969
growth curve reading ([1]; Kanamycin A 16 µg·mL-1, [10] 125 µM, 14 h): 0.2958
growth curve reading ([1]; Kanamycin A 16 µg·mL-1, [10] 125 µM, 15 h): 0.2933
growth curve reading ([1]; Kanamycin A 16 µg·mL-1, [10] 125 µM, 16 h): 0.2937
growth curve reading ([1]; Kanamycin A 16 µg·mL-1, [10] 125 µM, 17 h): 0.2921
growth curve reading ([1]; Kanamycin A 16 µg·mL-1, [10] 125 µM, 18 h): 0.2906
growth curve reading ([1]; Kanamycin A 16 µg·mL-1, [10] 125 µM, 19 h): 0.2898
growth curve reading ([1]; Kanamycin A 16 µg·mL-1, [10] 125 µM, 20 h): 0.2900
growth curve reading ([1]; Kanamycin A 16 µg·mL-1, [10] 125 µM, 21 h): 0.2904
growth curve reading ([1]; Kanamycin A 16 µg·mL-1, [10] 125 µM, 22 h): 0.2888
growth curve reading ([1]; Kanamycin A 16 µg·mL-1, [10] 125 µM, 23 h): 0.2892
growth curve reading ([1]; Kanamycin A 16 µg·mL-1, [10] 125 µM, 24 h): 0.2965
growth curve reading ([1]; Kanamycin A 16 µg·mL-1, [10] 250 µM, 8 h): 0.1704
growth curve reading ([1]; Kanamycin A 16 µg·mL-1, [10] 250 µM, 9 h): 0.2121
growth curve reading ([1]; Kanamycin A 16 µg·mL-1, [10] 250 µM, 10 h): 0.2517
growth curve reading ([1]; Kanamycin A 16 µg·mL-1, [10] 250 µM, 11 h): 0.2738
growth curve reading ([1]; Kanamycin A 16 µg·mL-1, [10] 250 µM, 12 h): 0.2998
growth curve reading ([1]; Kanamycin A 16 µg·mL-1, [10] 250 µM, 13 h): 0.3126
growth curve reading ([1]; Kanamycin A 16 µg·mL-1, [10] 250 µM, 14 h): 0.3130
growth curve reading ([1]; Kanamycin A 16 µg·mL-1, [10] 250 µM, 15 h): 0.3098
growth curve reading ([1]; Kanamycin A 16 µg·mL-1, [10] 250 µM, 16 h): 0.3071
growth curve reading ([1]; Kanamycin A 16 µg·mL-1, [10] 250 µM, 17 h): 0.3057
growth curve reading ([1]; Kanamycin A 16 µg·mL-1, [10] 250 µM, 18 h): 0.2992
growth curve reading ([1]; Kanamycin A 16 µg·mL-1, [10] 250 µM, 19 h): 0.3044
growth curve reading ([1]; Kanamycin A 16 µg·mL-1, [10] 250 µM, 20 h): 0.3052
growth curve reading ([1]; Kanamycin A 16 µg·mL-1, [10] 250 µM, 21 h): 0.3016
growth curve reading ([1]; Kanamycin A 16 µg·mL-1, [10] 250 µM, 22 h): 0.3045
growth curve reading ([1]; Kanamycin A 16 µg·mL-1, [10] 250 µM, 23 h): 0.3079
growth curve reading ([1]; Kanamycin A 16 µg·mL-1, [10] 250 µM, 24 h): 0.3123
growth curve reading ([1]; Kanamycin A 16 µg·mL-1, [10] 500 µM, 8 h): 0.1687
growth curve reading ([1]; Kanamycin A 16 µg·mL-1, [10] 500 µM, 9 h): 0.1992
growth curve reading ([1]; Kanamycin A 16 µg·mL-1, [10] 500 µM, 10 h): 0.2224
growth curve reading ([1]; Kanamycin A 16 µg·mL-1, [10] 500 µM, 11 h): 0.2556
growth curve reading ([1]; Kanamycin A 16 µg·mL-1, [10] 500 µM, 12 h): 0.2817
growth curve reading ([1]; Kanamycin A 16 µg·mL-1, [10] 500 µM, 13 h): 0.2938
growth curve reading ([1]; Kanamycin A 16 µg·mL-1, [10] 500 µM, 14 h): 0.2963
growth curve reading ([1]; Kanamycin A 16 µg·mL-1, [10] 500 µM, 15 h): 0.2950
growth curve reading ([1]; Kanamycin A 16 µg·mL-1, [10] 500 µM, 16 h): 0.2951
growth curve reading ([1]; Kanamycin A 16 µg·mL-1, [10] 500 µM, 17 h): 0.2925
growth curve reading ([1]; Kanamycin A 16 µg·mL-1, [10] 500 µM, 18 h): 0.2912
growth curve reading ([1]; Kanamycin A 16 µg·mL-1, [10] 500 µM, 19 h): 0.2915
growth curve reading ([1]; Kanamycin A 16 µg·mL-1, [10] 500 µM, 20 h): 0.2905
growth curve reading ([1]; Kanamycin A 16 µg·mL-1, [10] 500 µM, 21 h): 0.2887
growth curve reading ([1]; Kanamycin A 16 µg·mL-1, [10] 500 µM, 22 h): 0.2856
growth curve reading ([1]; Kanamycin A 16 µg·mL-1, [10] 500 µM, 23 h): 0.2837
growth curve reading ([1]; Kanamycin A 16 µg·mL-1, [10] 500 µM, 24 h): 0.2825
growth curve reading ([1]; Kanamycin A 32 µg·mL-1, [10] 125 µM, 8 h): 0.0004
growth curve reading ([1]; Kanamycin A 32 µg·mL-1, [10] 125 µM, 9 h): 0.0011
growth curve reading ([1]; Kanamycin A 32 µg·mL-1, [10] 125 µM, 10 h): 0.0035
growth curve reading ([1]; Kanamycin A 32 µg·mL-1, [10] 125 µM, 11 h): 0.0069
growth curve reading ([1]; Kanamycin A 32 µg·mL-1, [10] 125 µM, 12 h): 0.0142
growth curve reading ([1]; Kanamycin A 32 µg·mL-1, [10] 125 µM, 13 h): 0.0274
growth curve reading ([1]; Kanamycin A 32 µg·mL-1, [10] 125 µM, 14 h): 0.0533
growth curve reading ([1]; Kanamycin A 32 µg·mL-1, [10] 125 µM, 15 h): 0.0888
growth curve reading ([1]; Kanamycin A 32 µg·mL-1, [10] 125 µM, 16 h): 0.1283
growth curve reading ([1]; Kanamycin A 32 µg·mL-1, [10] 125 µM, 17 h): 0.1706
growth curve reading ([1]; Kanamycin A 32 µg·mL-1, [10] 125 µM, 18 h): 0.2164
growth curve reading ([1]; Kanamycin A 32 µg·mL-1, [10] 125 µM, 19 h): 0.2596
growth curve reading ([1]; Kanamycin A 32 µg·mL-1, [10] 125 µM, 20 h): 0.2954
growth curve reading ([1]; Kanamycin A 32 µg·mL-1, [10] 125 µM, 21 h): 0.3102
growth curve reading ([1]; Kanamycin A 32 µg·mL-1, [10] 125 µM, 22 h): 0.3168
growth curve reading ([1]; Kanamycin A 32 µg·mL-1, [10] 125 µM, 23 h): 0.3188
growth curve reading ([1]; Kanamycin A 32 µg·mL-1, [10] 125 µM, 24 h): 0.3177
effect of added inhibitor on kanamycin MIC ([1]; P. aeruginosa C0214, 125-500 µM inhibitor): did not change the MIC value
OD600nm ([1]; inhibitor 125 µM, KanaA 0 µg.mL-1): 0.3108
OD600nm ([1]; inhibitor 125 µM, KanaA 8 µg.mL-1): 0.3030
OD600nm ([1]; inhibitor 125 µM, KanaA 16 µg.mL-1): 0.2958
OD600nm ([1]; inhibitor 125 µM, KanaA 32 µg.mL-1): 0.2009
OD600nm ([1]; inhibitor 125 µM, KanaA 64 µg.mL-1): 0.00025
OD600nm ([1]; inhibitor 125 µM, KanaA 128 µg.mL-1): -5e-5
OD600nm ([1]; inhibitor 125 µM, KanaA 256 µg.mL-1): -0.0007
OD600nm ([1]; inhibitor 125 µM, KanaA 512 µg.mL-1): 0.0005
OD600nm ([1]; inhibitor 125 µM, KanaA 1024 µg.mL-1): -0.0009
OD600nm ([1]; inhibitor 125 µM, KanaA 2048 µg.mL-1): -0.0004
OD600nm ([1]; inhibitor 125 µM, KanaA 4096 µg.mL-1): 0.0005
OD600nm ([1]; inhibitor 250 µM, KanaA 0 µg.mL-1): 0.3043
OD600nm ([1]; inhibitor 250 µM, KanaA 8 µg.mL-1): 0.2952
OD600nm ([1]; inhibitor 250 µM, KanaA 16 µg.mL-1): 0.2944
OD600nm ([1]; inhibitor 250 µM, KanaA 32 µg.mL-1): 0.1366
OD600nm ([1]; inhibitor 250 µM, KanaA 64 µg.mL-1): -0.0017
OD600nm ([1]; inhibitor 250 µM, KanaA 128 µg.mL-1): -0.0004
OD600nm ([1]; inhibitor 250 µM, KanaA 256 µg.mL-1): -0.0010
OD600nm ([1]; inhibitor 250 µM, KanaA 512 µg.mL-1): -0.0009
OD600nm ([1]; inhibitor 250 µM, KanaA 1024 µg.mL-1): -0.0027
OD600nm ([1]; inhibitor 250 µM, KanaA 2048 µg.mL-1): -0.00055
OD600nm ([1]; inhibitor 250 µM, KanaA 4096 µg.mL-1): -0.00015
OD600nm ([1]; inhibitor 500 µM, KanaA 0 µg.mL-1): 0.2873
OD600nm ([1]; inhibitor 500 µM, KanaA 8 µg.mL-1): 0.2780
OD600nm ([1]; inhibitor 500 µM, KanaA 16 µg.mL-1): 0.2409
OD600nm ([1]; inhibitor 500 µM, KanaA 32 µg.mL-1): 0.1090
OD600nm ([1]; inhibitor 500 µM, KanaA 64 µg.mL-1): -0.0012
OD600nm ([1]; inhibitor 500 µM, KanaA 128 µg.mL-1): -0.0019
OD600nm ([1]; inhibitor 500 µM, KanaA 256 µg.mL-1): -0.0015
OD600nm ([1]; inhibitor 500 µM, KanaA 512 µg.mL-1): -0.0019
OD600nm ([1]; inhibitor 500 µM, KanaA 1024 µg.mL-1): -0.00095
OD600nm ([1]; inhibitor 500 µM, KanaA 2048 µg.mL-1): -0.0023
OD600nm ([1]; inhibitor 500 µM, KanaA 4096 µg.mL-1): -5e-5
effect of compound alone on bacterial growth ([1]; no kanamycin): did not affect bacterial growth
Inhibition (%) at 10 µM (APH(2”)-IVa; 10 µM compound): 89%
Ki (APH(2”)-IVa; 25°C, competitive vs MgATP, 100 µM kanamycin A): 0.36 µM

— publication PMC12678819, “Targeting bacterial kinases as a strategy to counteract antibiotic resistance” (2025)
